Compound potency records, mixed from different reports. Data source: NIAID ChemDB in PubChem.

All rows: whole-cell or culture tests; species: HIV-1; method: luciferase; measure: EC50

a–b is a range or a potency band.

CC(C)[C@@H](CO)n1cc(C(=O)O)c(=O)c2cc(Cc3cccc(Cl)c3F)c(N(C)C)nc21 ; conditions: pseudotyped ; strain: NL4-3 ; cells: HeLa ; value: >0.1 µM
COc1ccnc2[nH]cc(C(=O)C(=O)N3CCN(C(=O)c4ccccc4)C[C@H]3C)c12 ; strain: AC10 ; cells: TZM-bl ; value: 0.02 µM
CN(C(=O)[C@H](Cc1cc(F)cc(F)c1)NC(=O)NS(=O)(=O)N[C@@H](Cc1cc(F)cc(F)c1)C(=O)N(C)c1ccc2sc(=O)n(C)c2c1)c1ccc2sc(=O)n(C)c2c1 ; strain: NL4-3 ; cells: MT-2 ; value: 0.27 µM
COc1ncc(OC)c2c(C(=O)C(=O)N3CCC(=C(C#N)c4nc5ccccc5[nH]4)CC3)c[nH]c12 ; cells: HeLa ; value: <1 µM
CN(C(=O)[C@H](Cc1ccccc1)Nc1ncc(-c2cnc(N[C@@H](Cc3ccccc3)C(=O)N(C)c3ccc4scnc4c3)nc2)cn1)c1ccc2scnc2c1 ; strain: NL4-3 ; cells: MT-2 ; value: 0.34 µM
Cc1ccc2cccc(O)c2n1 ; strain: VB59 ; cells: TZM-bl ; value: 3.77 µM
CCOC(=O)c1cn([C@H](CO)C(C)C)c2ccc(NCc3ccc(F)cc3)cc2c1=O ; conditions: pseudotyped ; strain: NL4-3 ; cells: HeLa ; value: >0.1 µM
Cc1ccnc2c1NC(=O)c1cccnc1N2C1CC1 ; strain: SF162 ; cells: TZM-bl ; value: 0.03375 µM
CC(C)(C)[C@@H](CO)n1cc(C(=O)O)c(=O)c2cc(Cc3cccc(Cl)c3F)c(N3CCNCC3)nc21 ; conditions: pseudotyped ; strain: NL4-3 ; cells: HeLa ; value: 0.01–0.1 µM
COc1ncc(OC)c2c(C(=O)C(=O)N3CCC(=C(c4ccccc4)c4cc(C)cs4)CC3)c[nH]c12 ; cells: HeLa ; value: <1 µM
COc1ccc(N(C)C(=O)[C@H](Cc2cc(F)cc(F)c2)NC(=O)Cn2c(=O)n(CC(=O)N[C@@H](Cc3cc(F)cc(F)c3)C(=O)N(C)c3ccc(OC)cc3)c3cc(Cl)ccc32)cc1 ; strain: NL4-3 ; cells: MT-2 ; value: 0.04 µM
COc1ncc(OC)c2c(C(=O)C(=O)N3CCC(=C(c4ccccc4)c4nccs4)CC3)c[nH]c12 ; cells: HeLa ; value: <1 µM
Cc1nnc(C(C)C)n1C1C[C@H]2CC[C@@H](C1)N2CC[C@H](NC(=O)C1CCC(F)(F)CC1)c1ccccc1 ; strain: pTHRO.c/2626 ; cells: TZM-bl ; value: 0.084 µM
CCCCCCCCCCCCCCCCCC1N[C@@H](CO)[C@H](O)[C@H](O)[C@@H]1O ; strain: 89.6 ; cells: TZM-bl ; value: 3.69 µM
CCc1ncc(N(C)C(=O)[C@H](Cc2cc(F)cc(F)c2)NC(=O)c2ccc(F)c(C(=O)N[C@@H](Cc3cc(F)cc(F)c3)C(=O)N(C)c3cnc(CC)nc3)c2)cn1 ; strain: NL4-3 ; cells: MT-2 ; value: 14.45 µM
CCOC(=O)c1cn([C@H](CO)C(C)C)c2cc(OC)c(NCc3ccc(F)cc3)cc2c1=O ; conditions: pseudotyped ; strain: NL4-3 ; cells: HeLa ; value: <0.01 µM
COc1ccnc2[nH]cc(C(=O)C(=O)N3C4CC3CN(C(=O)c3ccccc3)C4)c12 ; strain: AC10 ; cells: TZM-bl ; value: 185 µM
CC(C)[C@@H](CO)n1cc(C(=O)O)c(=O)c2cc(NCc3c(F)cc(F)cc3F)c(N3CCOCC3)nc21 ; conditions: pseudotyped ; strain: NL4-3 ; cells: HeLa ; value: <0.01 µM
COc1cnc(-n2cc(C)nn2)c2[nH]cc(C(=O)C(=O)N3CCC(=C(c4ccccc4)c4nnc(C)o4)CC3)c12 ; cells: HeLa ; value: <1 µM
CCc1ccccc1N/N=C/c1ccc2cccc(O)c2n1 ; strain: VB59 ; cells: TZM-bl ; value: 8.86 µM
CCN(C(=O)[C@H](Cc1cc(F)cc(F)c1)NC(=O)CN1c2ccccc2N(CC(=O)N[C@@H](Cc2cc(F)cc(F)c2)C(=O)N(CC)c2ccc3oc(=O)n(CC)c3c2)S1(=O)=O)c1ccc2oc(=O)n(CC)c2c1 ; strain: NL4-3 ; cells: MT-2 ; value: 2.13 µM
Cc1cc(C)cc(N/N=C/c2ccc3cccc(O)c3n2)c1 ; strain: VB59 ; cells: TZM-bl ; value: 91.85 µM
Nc1c(C(=O)NCc2ccc(F)cc2F)c(=O)n(O)c2ncc(CCCCCO)cc12 ; changes: AGC (GGGAGC) ; cells: HOS ; value: <0.003 µM
Oc1cccc2ccc(/C=N/Nc3ccc(F)cc3)nc12 ; strain: VB59 ; cells: TZM-bl ; value: 25.56 µM
C=CCN(C(=O)[C@H](Cc1cc(F)cc(F)c1)NC(=O)c1ccccc1C(=O)N[C@@H](Cc1cc(F)cc(F)c1)C(=O)N(CC=C)c1ccc(OC)cc1)c1ccc(OC)cc1 ; strain: NL4-3 ; cells: MT-2 ; value: 1.79 µM
Oc1cccc2ccc(/C=N/Nc3ccccc3)nc12 ; strain: UG070 ; cells: TZM-bl ; value: 21.04 µM
CC(=O)OCCCc1cnc2c(c1)c(N)c(C(=O)NCc1ccc(F)cc1F)c(=O)n2O ; changes: AGT (GGGAGT) ; cells: HOS ; value: <0.001 µM
COc1ccc(N(C)C(=O)[C@H](Cc2ccccc2)NC(=O)[C@@H]2CC[C@H](C(=O)N[C@@H](Cc3ccccc3)C(=O)N(C)c3ccc(OC)cc3)C2)cc1 ; strain: NL4-3 ; cells: MT-2 ; value: 1.14 µM
N#CC(=C1CCN(C(=O)C(=O)c2c[nH]c3c(-n4nccn4)ccnc23)CC1)c1ccccc1 ; cells: HeLa ; value: <1 µM
Nc1c(C(=O)NCc2ccc(F)cc2F)c(=O)n(O)c2ncc(CCS(=O)(=O)c3ccccc3)cc12 ; changes: AGC (GGGAGC) ; cells: HOS ; value: <0.003 µM
Cc1cccc(N/N=C/c2ccc3cccc(O)c3n2)c1C ; strain: UG070 ; cells: TZM-bl ; value: 19.22 µM
COc1ccc(N(C)C(=O)[C@H](Cc2cc(F)cc(F)c2)Nc2ncc(-c3cnc(N[C@@H](Cc4cc(F)cc(F)c4)C(=O)N(C)c4ccc(OC)cc4)nc3)cn2)cc1 ; strain: NL4-3 ; cells: MT-2 ; value: 13.68 µM
Cc1ccc(N/N=C/c2ccc3cccc(O)c3n2)cc1C ; strain: UG070 ; cells: TZM-bl ; value: >150 µM
O=C(NCc1c(F)cc(F)cc1F)c1cn2c(c(O)c1=O)C(=O)N1[C@H]3CC[C@H](C3)O[C@@H]1C2 ; changes: AGT (GGGAGT) ; cells: HOS ; value: <0.001 µM

A second listing of 4 rows from above:

compound	changes	conditions	strain	cells	value
CN(C(=O)[C@H](Cc1ccccc1)Nc1ncc(-c2cnc(N[C@@H](Cc3ccccc3)C(=O)N(C)c3ccc4scnc4c3)nc2)cn1)c1ccc2scnc2c1	-	-	NL4-3	MT-2	0.34 µM
CC(C)[C@@H](CO)n1cc(C(=O)O)c(=O)c2cc(NCc3c(F)cc(F)cc3F)c(N3CCOCC3)nc21	-	pseudotyped	NL4-3	HeLa	<0.01 µM
CCCCCCCCCCCCCCCCCC1N[C@@H](CO)[C@H](O)[C@H](O)[C@@H]1O	-	-	89.6	TZM-bl	3.69 µM
CC(=O)OCCCc1cnc2c(c1)c(N)c(C(=O)NCc1ccc(F)cc1F)c(=O)n2O	AGT (GGGAGT)	-	-	HOS	<0.001 µM

Blank or dashed fields: not listed here. Rows are shuffled and stem from different studies. ECn: concentration that inhibits the pathogen or its effect by n%.